Pooled drug test results. Numbers come from NIAID ChemDB, via PubChem.

Common to all: growth or infection tests; agent: Candida albicans

MIC50, MIC90 and the like: level of inhibition, or share of isolates inhibited.

SMILES	method	strain or isolate	endpoint	value
Cc1c(Sc2ccccc2)[n+](=O)c2cc(Cl)ccc2n1[O-]	-	Clinical isolate 12	MIC	31.25 µg/mL
Nc1ncnc2c1ncn2[C@@H]1O[C@H](C(=O)O)[C@@H](NC(=O)C(N)c2ccccc2)[C@H]1O	-	FP633	MIC	>100 µg/mL
CCCn1nc(C)c(N=O)c1-c1cc(C)on1	-	-	MIC	7.4 µM
O=C1/C(=C/c2ccccc2[N+](=O)[O-])CCc2ccccc21	-	-	MIC	100 µg/mL
O=[n+]1c(Sc2ccccc2)c(CBr)n([O-])c2ccccc21	-	Clinical isolate 7	MIC	31.25 µg/mL
CCCCCCCCCCCC[N+](C)(C)COC1CCCCCCCCCCC1	-	ATCC 10231	MBC	26.9 µM
Brc1ccc(-c2n[nH]c(COc3ncnc4ccccc34)n2)cc1	-	MTCC 227	MIC100	25 µg/mL
CCCCCCCCCCCC[N+](C)(C)CSCCCC	-	ATCC 10231	MBC	1420 µM
CN[C@H]1CCCNC(=O)[C@@H]2C[C@H](N)CN2C(=O)[C@H]([C@@H](C)O)NC(=O)[C@H](CCc2ccc(O)cc2)NC(=O)[C@@H]2C[C@@H](O)CN2C(=O)[C@H]([C@@H](C)O)NC1=O	-	ATCC 38247	MIC	3.12 µg/mL
Cc1cc(-c2cc(C)on2)n(C)n1	-	-	MFC	>200 µM
Nc1ncnc2c1ncn2[C@@H]1O[C@H](C(=O)O)[C@@H](NC(=O)C(N)CSc2ccccc2)[C@H]1O	-	FP633	MIC	3.1 µg/mL
CN(CCCC#CC(C)(C)C)c1cccc2c1CCC(=O)N2	-	Clinical isolate 1	MIC	62.5 µg/mL
Nc1ncnc2c1ncn2[C@@H]1O[C@H](C(=O)O)[C@@H](NC(=O)[C@H](Cc2ccccc2)NC=O)[C@H]1O	-	FP633	MIC	>100 µg/mL
CCCCCCCCCCn1cc[n+](COCCCOC[n+]2ccn(CCCCCCCCCC)c2)c1	agar diffusion	ATCC 90028	MIC100	8 µM
CC[C@@H]([C@H](C)O)n1ncn(-c2ccc(N3CCN(c4ccc(OC[C@@H]5CO[C@@](Cn6cncn6)(c6ccc(F)cc6F)C5)cc4)CC3)cc2)c1=O	-	660 isolates	MIC50	0.03 µg/mL
CCCCCCCCCn1cc[n+](COCCCCCOC[n+]2ccn(CCCCCCCCC)c2)c1	agar diffusion	ATCC 90028	MIC100	8 µM
CCC(C)n1ncn(-c2ccc(N3CCN(c4ccc(OC[C@@H]5CO[C@@](Cn6cncn6)(c6ccc(F)cc6F)O5)cc4)CC3)cc2)c1=O	-	52 strains	MIC50	0.06 µg/mL
CCCCCCCCOc1ccc(N2CCN(c3ccc(C(=O)N[C@H]4CCCNC(=O)[C@@H]5C[C@H](N=C(N)N)CN5C(=O)[C@H](CCN)NC(=O)[C@H](CCc5ccc(O)cc5)NC(=O)[C@@H]5C[C@@H](O)CN5C(=O)[C@H]([C@@H](C)O)NC4=O)cc3)CC2)cc1	-	ATCC 38247	MIC	0.78 µg/mL
COc1ccc(-c2n[nH]c(COc3ncnc4ccccc34)n2)cc1OC	-	MTCC 227	MIC100	12.5 µg/mL
COc1ccc(C(c2cccc3ccccc23)n2ccnc2)cc1	-	23 strains	MIC50	16 µg/mL
O=C1NC(=O)/C(=C\c2ccccc2Cl)S1	broth dilution / visual reading	MTCC 227	MIC	500 µg/mL
COc1ccc(C[C@H](NC(=O)[C@@H](N)Cc2ccc(OC)cc2)C(=O)N[C@H]2[C@@H](O)[C@H](n3cnc4c(N)ncnc43)O[C@@H]2C(=O)O)cc1	-	FP633	MIC	>100 µg/mL
CCCCCOc1ccc(-c2ccc(-c3ccc(C(=O)N[C@H]4CCCNC(=O)[C@@H]5C[C@H](NC)CN5C(=O)[C@H]([C@@H](C)O)NC(=O)[C@H](CCc5ccc(O)cc5)NC(=O)[C@@H]5C[C@@H](O)CN5C(=O)[C@H]([C@@H](C)O)NC4=O)cc3)cc2)cc1	-	ATCC 38247	MIC	0.39 µg/mL
CCCCCCCCCCCC[N+](C)(C)COCC(C)C	-	ATCC 10231	MIC	298 µM
O=C1/C(=C/c2ccc3c(c2)OCO3)CSc2ccc(Cl)cc21	-	-	MIC	25 µg/mL
CCCCCCn1cc[n+](COCCCCOC[n+]2ccn(CCCCCC)c2)c1	agar diffusion	ATCC 90028	MIC100	10 µM
COc1ccccc1/C=C1\CSc2ccccc2C1=O	-	-	MIC	25 µg/mL
CCCCn1nc(-c2cc(C)on2)c(N=O)c1C	-	-	MIC	>200 µM
Nc1ncnc2c1ncn2[C@@H]1O[C@H](C(=O)O)[C@@H](NC(=O)[C@H](N)CSC2C=CCCC2)[C@H]1O	-	FP633	MIC	12.5 µg/mL
O=C1/C(=C/c2ccc3c(c2)OCO3)CCc2ccccc21	-	-	MIC	50 µg/mL
Cc1c(O)cccc1C(=O)N[C@@H](CSc1ccccc1)[C@H](O)CN1C[C@H]2CCCC[C@H]2C[C@H]1C(=O)NC(C)(C)C	-	I18A	MIC	>64 µg/mL
CCCCCCCCCCCCCCCC(=O)NC1CC(O)C(O)NC(=O)C2C(O)C(C)CN2C(=O)C(C(O)CC(N)=O)NC(=O)C(C(O)C(O)c2ccc(O)c(OS(=O)(=O)O)c2)NC(=O)C2CC(O)CN2C(=O)C(C(C)O)NC1=O	-	FP633	MIC50	0.025 µg/mL
CCCCCCCC[N+](C)(C)COCCC(C)CCCC(C)C	-	ATCC 10231	MIC	13.7 µM
CCCCCOc1ccc(-c2ccc(-c3ccc(C(=O)N[C@H]4CCCNC(=O)[C@@H]5C[C@H](N)CN5C(=O)CNC(=O)C(CCc5ccc(O)cc5)NC(=O)[C@@H]5C[C@@H](O)CN5C(=O)[C@H]([C@@H](C)O)NC4=O)cc3)cc2)cc1	-	ATCC 38247	MIC	1.56 µg/mL
CCCn1cc[n+](COCCCCCOC[n+]2ccn(CCC)c2)c1	agar diffusion	ATCC 90028	MIC100	736 µM
CC(C)(O)c1cn(-c2ccc(Cl)cc2)nn1	broth dilution	URM 4384	MIC	128 µg/mL
Clc1ccc(C(c2ccc3ccccc3c2)n2ccnc2)s1	-	23 strains	Mean MIC	2.4 µg/mL
CCCCCCCCCCCC[N+](C)(C)COCC(CC)CCC	-	ATCC 10231	MIC	12.8 µM
Nc1ncnc2c1ncn2[C@@H]1O[C@H](C(=O)O)[C@@H](NC(=O)Cc2ccccc2)[C@H]1O	-	FP633	MIC	>100 µg/mL
CCCCCCCCCCCC[N+](C)(C)COC1CCCC1	-	ATCC 10231	MBC	144 µM
Cc1ccc(C(c2ccc3ccccc3c2)n2ccnc2)cc1	-	23 strains	Mean MIC	4.9 µg/mL
Cc1c(S(=O)(=O)c2ccccc2)[n+](=O)c2cc(Cl)ccc2n1[O-]	-	Clinical isolate 22	MIC	31.25 µg/mL
CCCCCCCCCCCC[N+](C)(C)COC(C)C	-	ATCC 10231	MIC	311 µM
CCn1nc(-c2cc(C)on2)c(N=O)c1C	-	-	MFC	66 µM
O=C(Nc1nc2ccc(NC(=O)[C@@H]3CCC[C@H](NCc4ccc5ccccc5c4)C3)cc2s1)C1CCCC1	-	ATCC 44859	MIC	0.78 µM
c1ccc(-c2ccc(C(c3cccc4ccccc34)n3ccnc3)cc2)cc1	-	23 strains	EC50	>256 µg/mL
COc1ccc2c(c1)C(=O)/C(=C/c1ccc3ccccc3c1)CO2	-	-	MIC	12.5 µg/mL
Cc1ccc(-c2n[nH]c(COc3nc(C(F)(F)F)nc4ccccc34)n2)cc1	-	MTCC 227	MIC100	12.5 µg/mL
c1ccc2c(C(c3ccc(-n4cccc4)cc3)n3ccnc3)cccc2c1	-	23 strains	Mean MIC	3.9 µg/mL
CCCCCOc1ccc(-c2ccc(-c3ccc(C(=O)N[C@H]4CCCNC(=O)[C@@H]5C[C@H](NC(=O)NC)CN5C(=O)[C@H]([C@@H](C)O)NC(=O)[C@H](CCc5ccc(O)cc5)NC(=O)[C@@H]5C[C@@H](O)CN5C(=O)[C@H]([C@@H](C)O)NC4=O)cc3)cc2)cc1	-	ATCC 62376	MIC	0.2 µg/mL
Cc1ccc(C(c2cccc3ccccc23)n2ccnc2)cc1	-	23 strains	MIC50	8 µg/mL
C[C@H]1[C@H](O)[C@@H](C)/C=C/C=C/C=C/C=C/C=C/C=C/C=C/[C@H](O[C@@H]2O[C@H](C)[C@@H](O)[C@H](N)[C@@H]2O)C[C@@H]2O[C@](O)(C[C@@H](O)C[C@@H](O)CC[C@H](O)[C@@H](O)C[C@@H](O)CC(=O)O[C@H]1C)C[C@H](O)[C@H]2C(=O)O	-	ATCC 10261	MIC	0.25 µg/mL
CCOc1ccc(/C=C2\CCc3ccccc3C2=O)cc1	-	-	MIC	50 µg/mL
C[C@@H](c1ncncc1F)[C@](O)(Cn1cncn1)c1ccc(F)cc1F	broth dilution	W111	MIC	1 µg/mL
COC(=O)[C@H]1[C@@H]2C[C@@H](O[C@@H]3O[C@H](C)[C@@H](O)[C@H](N)[C@@H]3O)/C=C/C=C/C=C/C=C/C=C/C=C/C=C/[C@H](C)[C@@H](O)[C@H](C)[C@H](C)OC(=O)C[C@H](O)C[C@H](O)[C@@H](O)CC[C@H](O)C[C@H](O)C[C@](O)(C[C@@H]1O)O2	-	-	MIC	3.1 µM
Nc1nc(CC(N)C(=O)N[C@H]2[C@@H](O)[C@H](n3cnc4c(N)ncnc43)O[C@@H]2C(=O)O)ns1	-	FP633	MIC	50 µg/mL
CN(C)c1ccc(/C=C2/SC(=O)N(CC(=O)Nc3nc4ccc(SC#N)cc4s3)C2=O)cc1	broth dilution / visual reading	MTCC 227	MIC	200 µg/mL
CCCCCCCCCCCCCCn1cc[n+](COCCOC[n+]2ccn(CCCCCCCCCCCCCC)c2)c1	agar diffusion	ATCC 90028	MIC100	16 µM
S=c1[nH]nc(C2CCCCC2)n1-c1ccc(Cl)cc1Cl	-	CNCM 1180-79	MIC	>300 µg/mL
N#CSc1ccc2nc(NC(=O)CN3C(=O)S/C(=C/c4cccc(-c5ccco5)c4)C3=O)sc2c1	broth dilution / visual reading	MTCC 227	MIC	500 µg/mL
COc1ccc(-c2n[nH]c(COc3nc(C)nc4ccccc34)n2)cc1OC	-	MTCC 227	MIC100	6.25 µg/mL
Nn1c(C2CCCCC2)n[nH]c1=S	-	CNCM 1180-79	MIC	240 µg/mL
CCCCCCCCCCCC[N+](C)(C)COC1CCCCC1	-	ATCC 10231	MBC	138 µM
COc1cc(/C=C2/SC(=O)N(CC(=O)Nc3nc4ccc(SC#N)cc4s3)C2=O)ccc1O	broth dilution / visual reading	MTCC 227	MIC	1000 µg/mL
S=c1[nH]nc(-c2cnccn2)n1-c1ccc(Cl)cc1Cl	-	CNCM 1180-79	MIC	>300 µg/mL
Oc1ccc(-c2n[nH]c(COc3ncnc4ccccc34)n2)cc1	-	MTCC 227	MIC100	12.5 µg/mL
Nc1nccc(CC(N)C(=O)N[C@H]2[C@@H](O)[C@H](n3cnc4c(N)ncnc43)O[C@@H]2C(=O)O)n1	-	FP633	MIC	12.5 µg/mL
N#CSc1ccc2nc(NC(=O)CN3C(=O)S/C(=C/c4cccc(Oc5ccccc5)c4)C3=O)sc2c1	broth dilution / visual reading	MTCC 227	MIC	1000 µg/mL
c1ccc(C(c2cccc3ccccc23)n2ccnc2)cc1	-	23 strains	MIC90	32 µg/mL
Cc1ccc(-c2n[nH]c(COc3nc(C)nc4ccccc34)n2)cc1	-	MTCC 227	MIC100	6.25 µg/mL
CCCCCOc1ccc(-c2ccc(-c3ccc(C(=O)N[C@H]4CCCNC(=O)[C@@H]5C[C@H](NC(=O)OC(C)(C)C)CN5C(=O)[C@H]([C@@H](C)O)NC(=O)[C@H](CCc5ccc(O)cc5)NC(=O)[C@@H]5C[C@@H](O)CN5C(=O)[C@H]([C@@H](C)O)NC4=O)cc3)cc2)cc1	-	ATCC 62376	MIC	12.5 µg/mL
CCCCCCCCCCCCCCCC(=O)NC1CCC(O)NC(=O)C2C(O)C(C)CN2C(=O)C(C(O)CC(N)=O)NC(=O)C(C(O)Cc2ccc(O)c(OS(=O)(=O)O)c2)NC(=O)C2CC(O)CN2C(=O)C(C(C)O)NC1=O	-	FP633	MIC50	0.03 µg/mL

The first 10 rows once more:

SMILES	method	strain or isolate	endpoint	value
Cc1c(Sc2ccccc2)[n+](=O)c2cc(Cl)ccc2n1[O-]	-	Clinical isolate 12	MIC	31.25 µg/mL
Nc1ncnc2c1ncn2[C@@H]1O[C@H](C(=O)O)[C@@H](NC(=O)C(N)c2ccccc2)[C@H]1O	-	FP633	MIC	>100 µg/mL
CCCn1nc(C)c(N=O)c1-c1cc(C)on1	-	-	MIC	7.4 µM
O=C1/C(=C/c2ccccc2[N+](=O)[O-])CCc2ccccc21	-	-	MIC	100 µg/mL
O=[n+]1c(Sc2ccccc2)c(CBr)n([O-])c2ccccc21	-	Clinical isolate 7	MIC	31.25 µg/mL
CCCCCCCCCCCC[N+](C)(C)COC1CCCCCCCCCCC1	-	ATCC 10231	MBC	26.9 µM
Brc1ccc(-c2n[nH]c(COc3ncnc4ccccc34)n2)cc1	-	MTCC 227	MIC100	25 µg/mL
CCCCCCCCCCCC[N+](C)(C)CSCCCC	-	ATCC 10231	MBC	1420 µM
CN[C@H]1CCCNC(=O)[C@@H]2C[C@H](N)CN2C(=O)[C@H]([C@@H](C)O)NC(=O)[C@H](CCc2ccc(O)cc2)NC(=O)[C@@H]2C[C@@H](O)CN2C(=O)[C@H]([C@@H](C)O)NC1=O	-	ATCC 38247	MIC	3.12 µg/mL
Cc1cc(-c2cc(C)on2)n(C)n1	-	-	MFC	>200 µM

Neighbouring rows are from separate reports. ECn: concentration that inhibits the pathogen or its effect by n%. Blank or dashed fields: not listed here.